PubChem BioAssay AID504761, Drosophila RNAi Screening Center, 2011

- Test: 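Genome-wide fly cell screen for genes dengue virus requires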 (primary screen)
- System: D.Mel-2 cells from Drosophila
- Reagents: long dsRNA against Drosophila genes
- Treatment: infection with dengue virus type 2; dose and infection time not stated
- Measurement: 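Cells stained for dengue envelope protein and imaged; percent of infected cells per well on duplicate plates, ranked by infection, with stained nuclei counted for cell number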
- Direction: infection score: higher = more virus-infected cells; cell count: higher = more cells in the well
- Hit rule: 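Very low infection ranking in both replicate wells (chance probability at most 0.065), then a retest showing infection dropped 1.5-fold or more at p below 0.05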
- Calls: active = confirmed: knock-down lowers infection; inactive = not picked or not confirmed
The screen tested about 22,000 reagents; shown is an unselected part of those that have a named target and a result. Of all reagents, 116 (0.52%) are marked active. 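Calls depend on retest data that are not deposited; infection was ranked per plate without normalising between plates; the unit of the infection score is not given.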 Raw values vary from plate to plate and are shown uncorrected. A plus sign joins genes that one reagent is predicted to hit. Not stated in the record: the amount of reagent, the time to read-out.

| gene knocked down | DRSC id | infection score, replicate 1 | infection score, replicate 2 | cell count, replicate 1 | cell count, replicate 2 | call |
| --- | --- | --- | --- | --- | --- | --- |
| CG7943 (GeneID 43574) | DRSC16351 | 2.39 | 4.11 | 6372 | 6843 | inactive |
| vanin-like (GeneID 31551) | DRSC17440 | 0.02 | 0.08 | 6536 | 6620 | active |
| fiz (GeneID 32420) | DRSC20188 | 1.58 | 2.74 | 6436 | 6572 | inactive |
| Ir94c (GeneID 318727) | DRSC13539 | 6.12 | 2.76 | 5943 | 4859 | inactive |
| eIF3l (GeneID 39386) | DRSC10530 | 7.63 | 2.23 | 5791 | 5837 | inactive |
| eIF3l (GeneID 39386) | DRSC26186 | 17.7 | 13.7 | 5942 | 6192 | inactive |
| CG18294 + 825-Oak + CG32214 + 2 more | DRSC22210 | 2.05 | 9.51 | 6834 | 6371 | inactive |
| CG15422 (GeneID 33615) | DRSC00436 | 6.75 | 5.89 | 6608 | 6855 | inactive |
| CG15422 (GeneID 33615) | DRSC25238 | 3.29 | 2.68 | 5530 | 6238 | inactive |
| CG4815 (GeneID 43360) | DRSC15653 | 4.19 | 16.2 | 5875 | 4996 | inactive |
| CG10185 (GeneID 41953) | DRSC14205 | 2.98 | 9.12 | 6345 | 2740 | inactive |
| CG8170 (GeneID 35908) | DRSC07087 | 8.84 | 4.53 | 6086 | 5652 | inactive |
| CG31855 (GeneID 318983) | DRSC02968 | 9.01 | 6.63 | 6306 | 6742 | inactive |
| CG31855 (GeneID 318983) | DRSC25858 | 1.62 | 19 | 6473 | 5646 | inactive |
| CG13334 (GeneID 36510) | DRSC06369 | 18 | 12.2 | 6124 | 5755 | inactive |
| ECSIT (GeneID 40732) | DRSC12348 | 1.36 | 21.4 | 6565 | 5624 | inactive |
| CG13312 (GeneID 39010) | DRSC09983 | 1.26 | 0.58 | 6488 | 6759 | inactive |
| CG13312 (GeneID 39010) | DRSC26729 | 2.51 | 11.2 | 6580 | 6487 | inactive |
| Idgf6 (GeneID 36868) | DRSC07360 | 3.12 | 12.3 | 6373 | 4583 | inactive |
| Idgf6 (GeneID 36868) | DRSC24904 | 5.15 | 1.81 | 5745 | 6118 | inactive |
| CG6785 (GeneID 34620) | DRSC02993 | 10.9 | 2.82 | 6120 | 5963 | inactive |
| CG6785 (GeneID 34620) | DRSC25446 | 8.2 | 7.14 | 6046 | 6342 | inactive |
| trio (GeneID 43974) | DRSC07928 | 0.61 | 0.25 | 6683 | 6378 | inactive |
| trio (GeneID 43974) | DRSC08740 | 1.81 | 2.02 | 6300 | 6289 | inactive |
| trio (GeneID 43974) | DRSC26700 | 2.32 | 3.2 | 5775 | 6507 | inactive |
| SecCl (GeneID 39949) | DRSC10887 | 11.5 | 25.8 | 5255 | 4340 | inactive |
| ced-6 (GeneID 35971) | DRSC07591 | 2.98 | 3.02 | 6570 | 7120 | inactive |
| ced-6 (GeneID 35971) | DRSC29627 | 8.33 | 14 | 4934 | 5007 | inactive |
| ZnT77C (GeneID 40271) | DRSC11766 | 17.4 | 8.24 | 6001 | 6125 | inactive |
| ZnT77C (GeneID 40271) | DRSC11767 | 3.01 | 19.8 | 5755 | 5358 | inactive |
| CG10597 (GeneID 32714) | DRSC19357 | 10.3 | 5.94 | 5979 | 6351 | inactive |
| CG10597 (GeneID 32714) | DRSC25101 | 2.95 | 5.17 | 6029 | 5894 | inactive |
| CG14877 (GeneID 41929) | DRSC15001 | 5.34 | 4.22 | 6465 | 6274 | inactive |
| CG14877 (GeneID 41929) | DRSC30033 | 6.11 | 6.67 | 6334 | 6158 | inactive |
| AnxB10 (GeneID 33019) | DRSC20677 | 4.1 | 1.69 | 6560 | 6857 | inactive |
| AnxB10 (GeneID 33019) | DRSC25182 | 3.24 | 4.23 | 6173 | 6472 | inactive |
| CG18530 (GeneID 59241) | DRSC15341 | 5.07 | 10.5 | 6216 | 6345 | inactive |
| Gem2 (GeneID 40087) | DRSC09721 | 0.98 | 6.64 | 6809 | 6342 | inactive |
| His-Psi:CR31754 (GeneID 3772639) | DRSC22051 | 1.9 | 4.18 | 4643 | 4717 | inactive |
| CG4757 (GeneID 41330) | DRSC14130 | 2.84 | 5.81 | 6199 | 6490 | inactive |
| CG30054 (GeneID 246420) | DRSC05354 | 5.46 | 0.44 | 6316 | 5958 | inactive |
| NO66 (GeneID 31374) | DRSC18252 | 3.97 | 9.35 | 6706 | 6602 | inactive |
| CG31538 (GeneID 318790) | DRSC12059 | 2.68 | 3.13 | 6409 | 6381 | inactive |
| CG14950 (retired record) (GeneID 38334) | DRSC08409 | 1.24 | 30.6 | 6066 | 4709 | inactive |
| RpL17 (GeneID 31613) | DRSC18293 | 2.24 | 3.29 | 2189 | 2098 | inactive |
| RpL17 (GeneID 31613) | DRSC29971 | 14.5 | 17.1 | 4373 | 4889 | inactive |
| CG9849 (GeneID 37647) | DRSC04573 | 17.9 | 22.9 | 5761 | 5765 | inactive |
| fws (GeneID 35054) | DRSC02969 | 14.8 | 12.5 | 6349 | 6274 | inactive |
| fws (GeneID 35054) | DRSC29678 | – | – | 366 | 383 | inactive |
| Trim9 (GeneID 34453) | DRSC02242 | 16.1 | 8.37 | 5424 | 5355 | inactive |
| Trim9 (GeneID 34453) | DRSC28679 | 11.5 | 0.24 | 2932 | 416 | inactive |
| CG6865 (GeneID 40050) | DRSC10732 | 4.77 | 5.25 | 6966 | 6762 | inactive |
| CG2225 (GeneID 35421) | DRSC03722 | 27.2 | 17.8 | 6082 | 6359 | inactive |
| CG2225 (GeneID 35421) | DRSC03723 | 14.5 | 18.4 | 6201 | 6097 | inactive |
| CG34112 (GeneID 4379842) | DRSC12235 | 4.15 | 1.25 | 6000 | 6480 | inactive |
| CG12279 (GeneID 41570) | DRSC14495 | 6.43 | 7.02 | 5974 | 6523 | inactive |
| CG1674 (GeneID 43780) | DRSC17142 | – | – | 310 | 280 | inactive |
| CG1674 (GeneID 43780) | DRSC29516 | 15.8 | 11.2 | 5248 | 2737 | inactive |
| Mal-A4 (GeneID 35827) | DRSC07236 | 2.59 | 12 | 6475 | 6896 | inactive |
| Mal-A4 (GeneID 35827) | DRSC28546 | 0.72 | 4.31 | 552 | 1321 | inactive |
| Klp67A (GeneID 39068) | DRSC11205 | 0.62 | 3.3 | 5454 | 5248 | inactive |
| Klp67A (GeneID 39068) | DRSC26028 | 5.3 | 5.28 | 6042 | 5493 | inactive |
| AGO3 (GeneID 3355150) | DRSC21386 | 1.48 | 0.78 | 6066 | 6381 | inactive |
| Hug (GeneID 41547) | DRSC16969 | 1.62 | 24.2 | 6293 | 4806 | inactive |
| Hug (GeneID 41547) | DRSC29749 | 4.16 | 2.4 | 6158 | 6419 | inactive |
| Osi7 (GeneID 40761) | DRSC12176 | 2.32 | 6.7 | 6772 | 6027 | inactive |
| Osi7 (GeneID 40761) | DRSC27146 | 4.62 | 18.3 | 6885 | 5969 | inactive |
| Gel (GeneID 46008) | DRSC12350 | 15.8 | 34 | 4055 | 4600 | inactive |
| Gel (GeneID 46008) | DRSC24569 | 0.48 | 0.67 | 6443 | 6083 | inactive |
| Sap130 (GeneID 39455) | DRSC09680 | 0.45 | 3.15 | 4642 | 4031 | inactive |
| Sap130 (GeneID 39455) | DRSC28079 | 2.82 | 6.68 | 5632 | 4730 | inactive |
| Klp68D (GeneID 39332) | DRSC11206 | 9.72 | 12.1 | 6182 | 5918 | inactive |
| Klp68D (GeneID 39332) | DRSC29890 | 12.9 | 22.5 | 5532 | 6345 | inactive |
| CG33177 (GeneID 32438) | DRSC19949 | 3.1 | 3.17 | 6486 | 6882 | inactive |

Laid out differently: 6 of the entries above.
fiz (GeneID 32420) [DRSC20188]: infection score, replicate 1 = 1.58; infection score, replicate 2 = 2.74; cell count, replicate 1 = 6436; cell count, replicate 2 = 6572; call = inactive
Ir94c (GeneID 318727) [DRSC13539]: infection score, replicate 1 = 6.12; infection score, replicate 2 = 2.76; cell count, replicate 1 = 5943; cell count, replicate 2 = 4859; call = inactive
eIF3l (GeneID 39386) [DRSC10530]: infection score, replicate 1 = 7.63; infection score, replicate 2 = 2.23; cell count, replicate 1 = 5791; cell count, replicate 2 = 5837; call = inactive
eIF3l (GeneID 39386) [DRSC26186]: infection score, replicate 1 = 17.7; infection score, replicate 2 = 13.7; cell count, replicate 1 = 5942; cell count, replicate 2 = 6192; call = inactive
CG18294 + 825-Oak + CG32214 + 2 more [DRSC22210]: infection score, replicate 1 = 2.05; infection score, replicate 2 = 9.51; cell count, replicate 1 = 6834; cell count, replicate 2 = 6371; call = inactive
CG15422 (GeneID 33615) [DRSC00436]: infection score, replicate 1 = 6.75; infection score, replicate 2 = 5.89; cell count, replicate 1 = 6608; cell count, replicate 2 = 6855; call = inactive
